Pooled drug test results. Numbers come from NIAID ChemDB, via PubChem.

Shared fields: cytotoxicity tests; read-out: CC50

Rows are shuffled and stem from different studies. An empty or dashed field is not shown. CCn is the concentration with n% toxicity to the cells.

compound,conditions,read by,cell line,result
Cc1ccc(/C=C/C(=O)/C=C/c2ccc(C)o2)o1,-,-,VERO,8.11 µg/mL
Nc1ccn(C[C@@H](CO)OCP(=O)(O)O)c(=O)n1,-,MTT,CBMC,180 µM
CCCCCCCCCCCCCCCCOP(=O)([O-])OCC[N+](C)(C)Cc1ccccc1,-,MTT,MDA,44.3 µM
Fc1cccc(Cn2cc(/C=N/Nc3nncs3)c3ccccc32)c1,24 h,MTT,Fibroblast L929 cell line,>100 µg/mL
CCC[C@H](NC(=O)[C@@H]1[C@H]2CCC[C@H]2CN1C(=O)[C@@H](NC(=O)[C@@H](NC(=O)c1cnccn1)C1CCCCC1)C(C)(C)C)C(=O)C(=O)NC1CC1,-,luminescence,n4mBid,30 µM
CO[C@@]12[C@H](COC(C)=O)C3=C(C(=O)C(C)=C(N4CCCCC4)C3=O)N1C[C@@H]1N[C@@H]12,-,-,VERO,0.44 µg/mL
OC[C@H]1O[C@@H](n2cnc3c(NC4CC4)nc(Cl)nc32)[C@H](O)[C@@H]1O,-,MTT,Sheep chondrocytes G81092,225 µM
COc1cc(OC)n2sc(=NC(=O)c3cccnc3Cl)nc2n1,-,MTS,MDCK,>300 µM
CC[n+]1c(-c2ccccc2)c2cc(N)ccc2c2ccc(N)cc21,-,-,VERO,17.08 µg/mL
O=C1c2c(O)cc(O)cc2O[C@@H](c2ccc(O)cc2)[C@@H]1c1c(O)cc(O)c2c(=O)cc(-c3ccc(O)c(O)c3)oc12,-,sulforhodamine / absorbance,P-388,20.47 µM
Nc1nc(Cl)cc2c1ncn2[C@@H]1O[C@H](CO)C[C@H]1O,-,MTT,Sheep chondrocytes G81092,>400 µM
CO[C@H]1/C=C/O[C@@]2(C)Oc3c(C)c(O)c4c(c3C2=O)C(=O)C(CO)=C(NC(=O)/C(C)=C\C=C\[C@H](C)[C@H](O)[C@@H](C)[C@@H](O)[C@@H](C)[C@H](OC(C)=O)[C@@H]1C)C4=O,-,-,VERO,79.62 µg/mL
COC(=O)[C@@H]1[C@H](c2cc(OC)c3nc4ccccc4nc3c2)c2cc3c(cc2C2=NOC[C@@H]21)OCO3,-,-,HT-29,10 µM
COC(=O)c1n[nH]c(C)c1N=NN1CCC(C(N)=O)CC1,-,-,VERO,5.7 µg/mL
O=c1[nH]c(=O)n([C@H]2C[C@H](O)[C@@H](CO)O2)cc1/C=C/Br,-,-,U87MG,185 µg/mL
CCN1CCC(CCOC)(CN2c3ccccc3Sc3ccc(Cl)cc32)C1.Cl,-,-,VERO,2.14 µg/mL
NC(=O)O[C@@H]1[C@@H](O)[C@H](O)[C@H](NC(=O)[C@@H]2CCC(N)=N2)[C@H](O)[C@H]1O[C@@H]1O[C@H](CO)[C@@H](O[C@H]2O[C@H](CO)[C@@H](O)[C@H](O)[C@H]2NC(=O)[C@@H](N)CCCN=C(N)N)[C@H](O)[C@@H]1O,-,-,HeLa,100 µg/mL
CSC(=S)N/N=C(/C)c1ccco1,-,-,VERO,0.95 µg/mL
Cc1cc(C)nc(NC(=S)NC(=O)c2ccc(Cl)cc2F)n1,-,MTS,MDCK,>300 µM
Fc1ccc(-c2nc(SCCCCBr)n[nH]2)cc1,-,MTT,THP-1,>100 µg/mL
COc1cc([C@@H]2c3cc4c(cc3[C@H](OC(C)=O)[C@@H]3COC(=O)[C@@H]23)OCO4)cc2nc3cc(C)c(C)cc3nc12,-,-,P-388,4.8 µM
Nc1ccn([C@@H]2CC[C@H](CO)O2)c(=O)n1,-,-,IM9,33 µM
C/C(=C\C=C\C(C)[C@H]1CC[C@@]2(C)[C@@H]3CC[C@H]4C(C)(C)C(=O)CC[C@]4(C)C3=CC[C@]12C)C(=O)O,-,sulforhodamine / absorbance,ASK (Atlantic salmon kidney),>50 µM
C=CCN(CC=C)CCN1CCN(CCCN2c3ccccc3Sc3ccc(C(F)(F)F)cc32)CC1.Cl.Cl.Cl,-,-,VERO,4.5 µg/mL
N=C1Sc2ccccc2C2=NCCCN12,-,luminescence,n4mBid,>60 µM
CCCCCCCCCCCCCCCCOP(=O)([O-])OCCC[N+](C)(C)Cc1ccccc1,-,MTT,MDA,43.7 µM
Brc1ccc(Cn2cc(/C=N/Nc3nncs3)c3ccccc32)cc1,24 h,MTT,Fibroblast L929 cell line,>100 µg/mL
Nc1ccn([C@H]2CC[C@@H](CO)O2)c(=O)n1,-,-,CFU-GM,1.6 µM
COc1cc(Cl)nc2nc(=NC(=O)c3ccc(Cl)nc3)sn12,-,MTS,MDCK,>300 µM
Nc1cc(Cl)nc2c1ncn2[C@H]1C[C@H](O)[C@@H](CO)O1,-,-,Sheep chondrocytes G81092,>400 µM
O=C(NNCc1ccccc1)c1ccccn1,-,-,VERO,601 µg/mL
Nc1ccc(-c2nc(=S)[nH][nH]2)cc1,-,MTT,Panc-1,>100 µg/mL
OC[C@H]1O[C@@H](n2cnc3c(NC4CCCCCC4)cc(Cl)nc32)C[C@@H]1O,-,-,Sheep chondrocytes G81092,230 µM
Nc1ncnc2c1ncn2[C@@H]1O[C@H](CO)[C@@H](O)[C@@H]1O,-,MTT,CBMC,78 µM
CCCCCn1cc(/C=N/Nc2nncs2)c2ccccc21,24 h,MTT,Fibroblast L929 cell line,32.92 µg/mL
CC(C)=CC[C@H]1C[C@]2(C[C@H]3CCC(C)(C)C=C3C)C(=O)C3=C(OC(C)(C)CC3)[C@@](C(=O)c3ccccc3)(C2=O)C1(C)C,-,sulforhodamine / absorbance,ASK (Atlantic salmon kidney),>50 µM
Nc1ncnc2c1ncn2CCOCP(=O)(O)O,-,MTT,CBMC,42 µM
COc1cc(OC)nc(NC(=S)NC(=O)C2C(/C=C(/Cl)C(F)(F)F)C2(C)C)n1,-,MTS,MDCK,>300 µM
CCCCSc1n[nH]c(-c2ccc(O)cc2)n1,-,MTT,Panc-1,>100 µg/mL
CC(C)=CCC[C@@H](C)[C@@H]1CC[C@]2(C)C3=C(CC[C@@]12C)[C@@]1(C)CC[C@H](O)C(C)(C)[C@@H]1CC3,-,sulforhodamine / absorbance,P-388,41.75 µM
CCCCSc1n[nH]c(-c2ccccc2C)n1,-,MTT,THP-1,>100 µg/mL
CC(C)C[C@H]1C(=O)N2CCC[C@H]2[C@]2(O)O[C@](NC(=O)[C@@H]3C=C4c5cccc6[nH]c(Br)c(c56)C[C@H]4N(C)C3)(C(C)C)C(=O)N12,-,luminescence,n4mBid,>30 µM
COc1cccc2oc([N+](=O)[O-])cc12,-,-,VERO,9.28 µg/mL
Nc1nc2c(ncn2COC(CO)CO)c(=O)[nH]1,-,MTT,CBMC,159 µM
Nc1ncnc2c1ncn2[C@@H]1O[C@H](CO[C@H]2[C@H](O)[C@H](O[C@H]3O[C@@H](CO)[C@@H](O)[C@H](O)[C@@H]3N)[C@@H](O)[C@@H](OS(=O)(=O)O)[C@@H]2OC(=O)[C@@H](N)CO)[C@@H](O)[C@H]1O,-,-,HeLa,>200 µg/mL
O=C1c2ccccc2C(=O)c2sc(Nc3ccc(Cl)cc3)nc21,-,-,VERO,3 µg/mL
Nc1ccn(C[C@@H](CO)OCP(=O)(O)O)c(=O)n1,-,-,TR-14,>200 µg/mL
CN[C@@H]1[C@@H](O)[C@@H](O[C@@H]2[C@@H](O)[C@H](O[C@H]3O[C@H](CN)[C@@H](O)[C@H](O)[C@H]3N)[C@@H](N)C[C@H]2N)OC[C@]1(C)O,-,-,HeLa,>100 µg/mL
O=C(NC(=S)Nc1nc(Cl)cc(Cl)n1)c1ccc(-c2ccc([N+](=O)[O-])cc2)o1,-,MTS,MDCK,>300 µM
Cc1cc2c(C)c3cc(C)c(N)cc3nc2cc1N,-,-,VERO,0.51 µg/mL
CCn1cc(C(=O)O)c(=O)c2cnc(N3CCNCC3)nc21,-,-,HeLa,200 µg/mL
Nc1nccc2c1ncn2[C@@H]1C=C(CO)[C@@H](O)[C@H]1O,-,-,PRK,0.14 µg/mL
COC(=O)[C@@H]1[C@H](c2cc(OC)c(OC(C)=O)c(OC(C)=O)c2)c2cc3c(cc2C2=NOC[C@@H]21)OCO3,-,-,P-388,20 µM
CCOc1cc(OCC)nc(NC(=S)NC(=O)c2ccc(Cl)nc2)n1,-,MTS,MDCK,>300 µM
Nc1ncnc2c1ncn2[C@@H]1C=C[C@@H](O)[C@H]1O,-,-,MA-104,>100 µg/mL
C=C(C)[C@@H]1CC[C@]2(C)CCC3(C)[C@H](CC[C@@H]4[C@@]5(C)CC[C@H](O)C(C)(C)[C@@H]5CC[C@]43C)[C@@H]12,-,-,VERO,33 µg/mL
CC1C(=O)N(O)c2ncc(Br)cc2C1O,3 d,MTS,PHH,>100 µM
OC[C@H]1O[C@@H](n2cnc3c(NC4CCCCCC4)ncnc32)[C@H](O)[C@@H]1O,-,-,Sheep chondrocytes G81092,126 µM
CN(C)CCC=C1c2ccccc2CCc2ccccc21,-,luminescence,n4mBid,30 µM
Clc1ccc(Cn2cc(/C=N/Nc3nncs3)c3ccccc32)cc1,24 h,MTT,Fibroblast L929 cell line,>100 µg/mL
Cc1ccc(NC(=O)CCl)cc1Cl,-,-,VERO,0.4 µg/mL
COC1=CC([C@@H]2c3cc4c(cc3[C@H](O)[C@@H]3COC(=O)[C@H]32)OCO4)=CC(=O)C1=O,-,-,P-388,1.3 µM
CCOc1cc(Cl)nc(NC(=S)NC(=O)c2cccnc2Cl)n1,-,MTS,MDCK,>300 µM
COc1cc2oc3c(C)c(=O)cc4oc(-c5ccccc5)cc(c2c2c1CC[C@@H](c1ccccc1)O2)c43,-,-,VERO,>10 µg/mL
OC[C@H]1O[C@@H](n2cnc3c(NC4CCCCCC4)ncnc32)C[C@@H]1O,-,-,Sheep chondrocytes G81092,108 µM
CCCCCc1cc(/C=C2/N=C(c3ccc[nH]3)C=C2OC)[nH]c1C,-,-,VERO,<0.42 µg/mL
Cc1cccc(Cn2cc(/C=N/Nc3nncs3)c3ccccc32)c1,24 h,MTT,Fibroblast L929 cell line,>100 µg/mL
CO[C@H]1C[C@H](O[C@H]2[C@@H](C)[C@@H](O[C@@H]3O[C@@H](C)C[C@H](N(C)C)[C@H]3O)[C@H](C)C[C@@]3(CO3)C(=O)[C@H](C)[C@H](O)[C@@H](C)[C@H](C)OC(=O)[C@H]2C)O[C@@H](C)[C@@H]1O,-,-,HeLa,200 µg/mL
CC=CCOc1cc(NC(=S)OC(C)C)ccc1Cl,-,-,VERO,>10 µg/mL
CC(=O)N[C@H](C(=O)N[C@H](C(=O)N1CCC[C@H]1C(=O)NC1(C(=O)O)CC1)C(C)C)C1CCCCC1,-,-,HeLa,10 µg/mL
CCCCCCCCCCCCCCCCOP(=O)([O-])OCCC[N+](C)(C)C,-,MTT,MDA,61.7 µM
O=c1c2cc(O)ccc2oc2cc(O)cc(O)c12,-,sulforhodamine / absorbance,MCF-7,>50 µM
CN(CC(=O)O)NC(=O)CC(N)CC(O)CN,-,-,HeLa,20 µg/mL
C=CCn1c(=O)c(C(=O)Nc2nc(C34CC5CC(CC(C5)C3)C4)cs2)c(O)c2ccccc21,-,-,VERO,2.4 µg/mL
COc1cc(-c2ccccc2)c(O)c(OC)c1O,-,sulforhodamine / absorbance,ASK (Atlantic salmon kidney),>50 µM
O=[N+]([O-])c1ccc(-c2nc(SCC3CC3)n[nH]2)cc1,-,MTT,Panc-1,>100 µg/mL
CC(C)(C)CC(C)(C)c1ccc(OCCOP(=O)([O-])OCC[N+](C)(C)Cc2ccccc2)cc1,-,MTT,MCF,>100 µM
O=[N+]([O-])c1ccc(-c2n[nH]c(=S)s2)cc1,-,MTT,THP-1,>100 µg/mL
OC[C@@H]1C[C@@H](O)[C@H](n2cnc3c(NC4CCCCC4)nc(Cl)cc32)O1,-,-,Sheep chondrocytes G81092,270 µM
Nc1cccc2c1[nH]c(=O)c1ccccc12,-,-,VERO,14.17 µg/mL
CCCCCCCC/C=C\CCCCCCCCCCCC(=O)O,-,-,HeLa,75 µg/mL
COc1cc([C@@H]2c3cc4c(cc3[C@H](OC(C)=O)[C@@H]3COC(=O)[C@@H]23)OCO4)cc(OC)c1OC,-,-,MEL-28,0.55 µM
CCOC(=O)C1=C(C)NC(C)=C(C(=O)OC)C1c1cccc(Cl)c1Cl,-,luminescence,n4mBid,>30 µM

12 of the rows above, restated:

compound | conditions | read by | cell line | result
Nc1ccn([C@@H]2CC[C@H](CO)O2)c(=O)n1 | - | - | IM9 | 33 µM
Clc1ccc(Cn2cc(/C=N/Nc3nncs3)c3ccccc32)cc1 | 24 h | MTT | Fibroblast L929 cell line | >100 µg/mL
O=c1[nH]c(=O)n([C@H]2C[C@H](O)[C@@H](CO)O2)cc1/C=C/Br | - | - | U87MG | 185 µg/mL
Cc1cc(C)nc(NC(=S)NC(=O)c2ccc(Cl)cc2F)n1 | - | MTS | MDCK | >300 µM
CN(C)CCC=C1c2ccccc2CCc2ccccc21 | - | luminescence | n4mBid | 30 µM
CC1C(=O)N(O)c2ncc(Br)cc2C1O | 3 d | MTS | PHH | >100 µM
COC(=O)[C@@H]1[C@H](c2cc(OC)c(OC(C)=O)c(OC(C)=O)c2)c2cc3c(cc2C2=NOC[C@@H]21)OCO3 | - | - | P-388 | 20 µM
C=CCn1c(=O)c(C(=O)Nc2nc(C34CC5CC(CC(C5)C3)C4)cs2)c(O)c2ccccc21 | - | - | VERO | 2.4 µg/mL
O=C1c2c(O)cc(O)cc2O[C@@H](c2ccc(O)cc2)[C@@H]1c1c(O)cc(O)c2c(=O)cc(-c3ccc(O)c(O)c3)oc12 | - | sulforhodamine / absorbance | P-388 | 20.47 µM
N=C1Sc2ccccc2C2=NCCCN12 | - | luminescence | n4mBid | >60 µM
C=CCN(CC=C)CCN1CCN(CCCN2c3ccccc3Sc3ccc(C(F)(F)F)cc32)CC1.Cl.Cl.Cl | - | - | VERO | 4.5 µg/mL
O=C(NNCc1ccccc1)c1ccccn1 | - | - | VERO | 601 µg/mL